Measurements reported in article PMC3797041 (PLoS ONE, 2013).

Molecular target: ricin
Test: SPR

B1: hybrid DDA (VHH)
VHH: EVQLQASGGGLVQPGGSLRLACQYSGREGTTTVGWFRQSPGKEREFVAAIRWTDSRTPHTDSRFTTSSDNFKKTAYLQMNGLKPEDTALYYCTEDLKMQVAAYMNQRSVDYWSQGTQVTVSS
  binding result: no binding

B2: hybrid AAD (VHH)
VHH: EVQLVESGGGLVQAGDSLRLSCTASGRTFSRAVMGWFRQAPGKEREFVAAISAAPGTAYYAFYADSVRGRFSISADSAKNTVYLQMNSLKPEDTAVYYCAADTWNSVVTGTAADWGQGTQVTVSS
  binding result: no binding

B3: hybrid ADD (VHH)
VHH: EVQLQASGGGLVQPGGSLRLACQYSGRTFSRAVMGWFRQSPGKEREFVAAIRWTDSRTPHTDSRFTTSSDNFKKTAYLQMNGLKPEDTALYYCTEDTWNSVVTGTAADWSQGTQVTVSS
  binding result: no binding

B4: hybrid antibody A3C8 (VHH)
VHH: EVQLVESGGGLVQAGDSLRLSCTASGRTLGDYGVAWFRQAPGKEREFVSVISRSTIITDYADSVRGRFSISADSAKNTVYLQMNSLKPEDTAVYYCAVIANPVYATSRNSDDYGHWGQGTQVTVSS
  Kd: 0.72 nM

B5: hybrid construct A3D1 (VHH)
VHH: EVQLVESGGGLVQAGDSLRLSCTASGREGTTTVGWFRQAPGKEREFVAAIRWTDSRTPHTDSRFSISADSAKNTVYLQMNSLKPEDTAVYYCAADTWNSVVTGTAADWGQGTQVTVSS
  Kd: 9.4 nM

B6: hybrid DAD (VHH)
VHH: EVQLQASGGGLVQPGGSLRLACQYSGREGTTTVGWFRQSPGKEREFVAAISAAPGTAYYAFYADSVRGRFTTSSDNFKKTAYLQMNGLKPEDTALYYCTEDTWNSVVTGTAADWSQGTQVTVSS
  binding result: no binding

B7: hybrid antibody C8A3 (VHH)
VHH: EVQLQASGGGLVQGGDSLRLSCAASGRTFSRAVMGWFRQAPGKEREFVSAISAAPGTAYYAFYADSVRGRFTISRDNAKNAVYLQMNSLKPEDTAVYYCAVDLKMQVAAYMNQRSVDYWGQGTQVTVSS
  binding result: no binding

B8: hybrid construct D1A3 (VHH)
VHH: EVQLQASGGGLVQPGGSLRLACQYSGRTFSRAVMGWFRQSPGKEREFVAAISAAPGTAYYAFYADSVRGRFTTSSDNFKKTAYLQMNGLKPEDTALYYCTEDLKMQVAAYMNQRSVDYWSQGTQVTVSS
  binding result: no binding
